In a compilation of properties of binary mixtures (doi:10.1016/j.molliq.2019.111959):

Test: xn = mol fraction of the nth substance listed
Details: 100 kPa

CC[n+]1ccn(C)c1.O=S(=O)(F)[N-]S(=O)(=O)F + CC[n+]1ccn(C)c1.F[B-](F)(F)F
mass density [kg/m3]
Details	293.15 K	298.15 K	303.15 K	308.15 K	313.15 K	318.15 K	323.15 K	328.15 K	333.15 K
x1 = 0.1	1298.4	–	1290.5	1286.5	1282.6	1278.6	1274.7	1270.7	1266.8
x1 = 0.2	–	–	1311.8	1307.8	1303.8	1299.8	1295.9	–	–
x1 = 0.3	1338.7	1334.6	–	1326.6	1322.6	1318.6	–	–	1306.5
x1 = 0.4	1356	1351.9	1347.8	1343.8	–	1335.6	1331.6	1327.5	1323.4
x1 = 0.5	–	–	1364.6	1360.4	–	1352	1347.9	1343.7	1339.5
x1 = 0.6	1400.5	1396.2	1391.9	–	1383.3	–	1374.7	–	1366.1
x1 = 1	1446.6	1442.1	1437.6	1433.1	1428.5	1424	–	–	1410.5

CC[n+]1ccn(C)c1.O=S(=O)(F)[N-]S(=O)(=O)F + CC[n+]1ccn(C)c1.O=S(=O)([N-]S(=O)(=O)C(F)(F)F)C(F)(F)F
mass density [kg/m3]
Details	293.15 K	298.15 K	303.15 K	308.15 K	313.15 K	318.15 K	323.15 K	328.15 K	333.15 K
x2 = 0	–	–	–	–	–	–	1419.5	1415	–
x2 = 0.5	1489.8	1485	1480.2	1475.5	1470.7	1465.9	1461.2	–	–
x2 = 0.6	1496.5	–	1486.8	1482	1477.2	1472.3	–	1462.7	1457.8
x2 = 0.7	1504.1	1499.3	1494.4	1489.5	–	–	1475	1470.1	1465.2
x2 = 0.8	1507.4	–	1497.5	1492.6	–	1482.8	1477.8	1472.9	1468

CC[n+]1ccn(C)c1.F[B-](F)(F)F + CC[n+]1ccn(C)c1.O=S(=O)(F)[N-]S(=O)(=O)F
x2 = 0
Details	mass density [kg/m3]
293.15 K	1284.4
298.15 K	1280.6
303.15 K	1276.9
308.15 K	1273.1
313.15 K	1269.3
318.15 K	1265.6
323.15 K	1261.8
328.15 K	1258

CC[n+]1ccn(C)c1.O=S(=O)([N-]S(=O)(=O)C(F)(F)F)C(F)(F)F + CC[n+]1ccn(C)c1.O=S(=O)(F)[N-]S(=O)(=O)F
x1 = 1
Details	mass density [kg/m3]
293.15 K	1523.7
303.15 K	1513.6
308.15 K	1508.6
313.15 K	1503.5
318.15 K	1498.5
323.15 K	1493.4
333.15 K	1483.3
